# From publication PMC7382501 (Nature Communications, 2020)
# B1: FasR_(L98A) point mutant (natural protein)
# chain: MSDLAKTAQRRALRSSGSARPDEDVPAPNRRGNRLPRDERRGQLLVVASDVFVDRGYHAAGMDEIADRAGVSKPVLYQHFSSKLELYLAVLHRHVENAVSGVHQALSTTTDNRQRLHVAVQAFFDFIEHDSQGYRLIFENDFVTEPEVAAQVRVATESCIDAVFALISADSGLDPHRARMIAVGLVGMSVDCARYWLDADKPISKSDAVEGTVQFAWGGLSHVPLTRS
# B2: FasR_(F123A) point mutant (natural protein)
# chain: B1 chain with A98L, F123A
# B3: FasR_(L106F) point mutant (natural protein)
# chain: B1 chain with A98L, L106F
# Target: the molecule itself
# Test: SEC
row,Protein,stoichiometry N
1,B1,2
2,B2,2
3,B3,2

# Substitutions are numbered along the chain they refer to. In names and notes the source's numbering stands.
